Source: ChEMBL document CHEMBL3576781, “Substituted Bis-THF Protease Inhibitors with Improved Potency against Highly Resistant Mature HIV-1 Protease PR20” (J Med Chem, 2015)

How the values were obtained:
[1] = test system: Human immunodeficiency virus 1; assay: Resistance index, ratio of Ki for HIV1 protease PR20 mutant expressed in Escherichia coli BL21 (DE3) to Ki for wild type HIV1 protease
[2] = test system: Human immunodeficiency virus 1; assay: Potency index, ratio of Ki for darunavir to Ki for compound against HIV1 protease PR20 mutant expressed in Escherichia coli BL21 (DE3)

CC(C)CN(C[C@@H](O)[C@H](Cc1ccccc1)NC(=O)O[C@H]1CO[C@H]2OCC(F)(F)[C@H]21)S(=O)(=O)c1ccc(N)cc1
Ratio Ki [1]: 300
Ratio Ki [2]: 2
